Anti-infective test results gathered from many reports (values: NIAID ChemDB through PubChem).

All rows: whole-cell or culture tests; organism: HIV-1; cells: PBMC; endpoint: inhibition

Inhibition is in % at the dose shown (toxicity tests: loss of growth or viability). An empty or dashed field is not shown. Conditions beyond the fields shown may differ between rows.

{"structure": "CCN(C(=O)OCc1ccccc1)C1CCN(CCC(CN(C)S(=O)(=O)c2ccccc2)c2ccccc2)CC1", "strain or isolate": "YU-2 (M-tropic)", "method": "p24", "dose": "12.5 µM", "value": "95%"}
{"structure": "CCCCN(C(=O)OCc1ccccc1)C1CCN(CCC(CN(C)S(=O)(=O)c2ccccc2)c2ccccc2)CC1", "strain or isolate": "YU2", "method": "p24", "dose": "13 µM", "value": "<95%"}
{"structure": "O=Nc1c(-c2c(O)[nH]c3ccccc23)[nH]c2ccccc12", "strain or isolate": "GP120-R305K P308H SCH-1 resistant", "method": "p24", "dose": "1 µM", "value": "81.5%"}
{"structure": "Cc1cn([C@H]2C[C@H](N=[N+]=[N-])[C@@H](CO)O2)c(=O)[nH]c1=O", "strain or isolate": "NL4-3", "method": "p24 / RT activity", "dose": "0.0137 µM", "value": "90%"}
{"structure": "CCCCC/C=C\\C/C=C\\C/C=C\\C/C=C\\CCCC(=O)NCCc1ccc(O)c(O)c1", "strain or isolate": "NL4-3-Luc VSV pseudotyped", "method": "luciferase", "dose": "1 µM", "value": "62%"}
{"structure": "CC(C)=CCOc1c2occc2cc2ccc(=O)oc12", "strain or isolate": "NL4-3 Recombinant VSV-pseudotyped", "method": "luciferase", "dose": "25 µM", "value": "57%"}
{"structure": "Cc1cn([C@H]2C[C@H](N=[N+]=[N-])[C@@H](CO)O2)c(=O)[nH]c1=O", "strain or isolate": "LAV", "method": "RT activity", "dose": "0.03 µM", "value": "90%"}
{"structure": "Cn1cnc2c(NCc3ccccc3)nc(NCCO)nc21", "strain or isolate": "THA/92/00 NSI CLADE E", "method": "p24", "dose": "10 µM", "value": "10%"}
{"structure": "O=C(O)[C@H]1O[C@@H](Oc2cc3oc(-c4ccccc4)cc(=O)c3c(O)c2O)[C@H](O)[C@@H](O)[C@@H]1O", "strain or isolate": "MN", "method": "cytopathic effect / p24 / ELISA", "dose": "100 µg/mL", "value": "77%"}
{"structure": "O=c1[nH]cnc2c1ncn2[C@H]1CC[C@@H](CO)O1", "strain or isolate": "IIIB", "method": "p24", "dose": "2 µM", "value": "<20%"}
{"structure": "Oc1ccc(/C=C/c2cc(O)cc(O)c2)cc1", "strain or isolate": "EJC-X1", "method": "p24", "setting": "clinical isolate", "dose": "5 µM", "value": "20%"}
{"structure": "CC(C)CCCCCCCCCCCN(C)OP(=O)(O)N(CC(N)=O)P(=O)(O)OC1C(OC[C@H]2O[C@@H](n3ccc(=O)[nH]c3=O)[C@H](O)[C@@H]2O)=C(CO)C(O)C1O", "strain or isolate": "IIIB", "method": "p24", "dose": "0.8 µM", "value": "80%"}
{"structure": "C=C(C)[C@]12C[C@@H](COC(=O)c3ccccc3)[C@@]34O[C@]5(O[C@@H]1[C@@H]3[C@@H]1O[C@]1(CO)[C@@H](O)[C@@]1(O)[C@H]4[C@H]([C@H](C)[C@@H]1OC(=O)c1ccccc1)[C@H](C)CCCCCC[C@H]5O)O2", "dose": "0.001 µM", "value": "90%"}
{"structure": "O=c1[nH]cc(F)c(=O)[nH]1", "strain or isolate": "ERS104pre", "method": "p24", "dose": "1 µM", "value": "23%"}
{"structure": "Cc1cn([C@H]2C[C@H](N=[N+]=[N-])[C@@H](CO)O2)c(=O)n(N)c1=O", "strain or isolate": "BRU", "method": "p24 / RT activity", "dose": "2.5 µM", "value": "90%"}
{"structure": "CC(C)[C@H](NC(=O)c1ccc2ccccc2n1)C(=O)N[C@@H](Cc1ccccc1)[C@H](O)CN1CC[C@@H](OCc2ccncc2)C[C@H]1C(=O)NC(C)(C)C", "strain or isolate": "VR1372", "method": "p24", "dose": "0.014 µM", "value": "90%"}
{"structure": "CC(C)=CCOc1cc(NC(=S)c2ccoc2C)ccc1Cl", "strain or isolate": "92US657 Clinical isolate", "method": "p24", "dose": "0.00921 µg/mL", "value": "70%"}
{"structure": "O=c1c(O)c(-c2ccc(O)c(O)c2)oc2cc(O)cc(O)c12", "method": "p24", "dose": "40 µM", "value": "80%"}
{"structure": "O=C1N(Cc2ccc(CO)cc2)[C@H](Cc2ccccc2)[C@H](O)[C@@H](O)[C@@H](Cc2ccccc2)N1Cc1ccc(CO)cc1", "strain or isolate": "RF", "method": "p24", "dose": "0.16 µM", "value": "90%"}
{"structure": "CC(=O)N1CCC(C(=O)N(CCCN2CCC(Cc3ccc(C(N)=O)cc3)CC2)c2ccc(C)c(Cl)c2)CC1", "strain or isolate": "HNK R5 clinical isolate", "method": "p24", "dose": "0.028 µM", "value": "90%"}
{"structure": "CCC[C@@]1(CCc2ccccc2)CC(O)=C([C@H](CC)c2cccc(NS(=O)(=O)c3ccc(C(F)(F)F)cn3)c2)C(=O)O1", "strain or isolate": "Isolate 301-1X ritonavir-susceptible", "changes": "Ritonavir-resistant protease", "method": "p24", "dose": "0.2 µM", "value": "90%"}
{"structure": "Cc1cn([C@H]2C[C@H](N=[N+]=[N-])[C@@H](CO)O2)c(=O)[nH]c1=O", "strain or isolate": "JR-CSF", "method": "p24", "dose": "0.003 µM", "value": "76.5%"}
{"structure": "OO", "strain or isolate": "BaL", "method": "RT activity", "dose": "10 µM", "value": "10%"}
{"structure": "CCc1cc(NCc2nc3c(Cl)ccc(Cl)c3o2)c(=O)[nH]c1C", "strain or isolate": "Clinical isolate (RT M41L)", "changes": "RT-M41L", "method": "p24", "dose": "0.1 µM", "value": "90%"}
{"structure": "c1cc(CN2CCCNCCNCCCNCC2)ccc1CN1CCCNCCNCCCNCC1", "strain or isolate": "SW20 CLADE C R5X4", "method": "p24", "dose": "0.5 µM", "value": "100%"}
{"structure": "Nc1nc(NC2CC2)c2ncn([C@H]3C=C[C@@H](CO)O3)c2n1", "strain or isolate": "BRU PITT WT", "method": "cytopathic effect / MTT", "dose": "19 µM", "value": "90%"}
{"structure": "Nc1nc(=O)n([C@@H]2C[Se][C@H](CO)O2)cc1F", "strain or isolate": "LAV", "method": "RT activity", "dose": "1.05 µM", "value": "90%"}
{"structure": "Cc1cn([C@H]2C[C@H](N=[N+]=[N-])[C@@H](CO)O2)c(=O)[nH]c1=O", "strain or isolate": "Primary clinical isolate Rome", "method": "p24", "dose": "3.7 µM", "value": "70%"}
{"structure": "COc1cc(C[C@H](C)[C@H](C)Cc2ccc(O)c(O)c2)ccc1O", "strain or isolate": "VS", "method": "p24", "dose": "25 µg/mL", "value": "95%"}
{"structure": "c1cc(CN2CCCNCCNCCCNCC2)ccc1CN1CCCNCCNCCCNCC1", "strain or isolate": "IIIB X4 laboratory isolate", "method": "p24", "dose": "0.28 µM", "value": "100%"}
{"structure": "CC(C)Nc1cccnc1N1CCN(C(=O)c2cc3cc(N=CN(C)C)ccc3[nH]2)CC1", "strain or isolate": "Seropositive clinical isolate D", "method": "MTT", "dose": "1 µM", "value": "99%"}
{"structure": "Nc1nc(NC2CC2)c2ncn([C@H]3C=C[C@@H](CO)C3)c2n1", "strain or isolate": "IIIB", "method": "p24", "dose": "4 µM", "value": "95%"}
{"structure": "C[C@H]1/C=C/[C@@]2(C)CC[C@@H](C(C)(C)O)[C@@H]2[C@@H](O)C[C@](C)(O)/C=C/C1", "strain or isolate": "95BRSP007 R5X4", "method": "p24", "dose": "25 µM", "value": "88%"}
{"structure": "Cc1cn([C@H]2C[C@H](N=[N+]=[N-])[C@@H](CO)O2)c(=O)[nH]c1=O", "strain or isolate": "RF", "method": "p24", "dose": "0.125 µM", "value": "100%"}
{"structure": "Cc1cn([C@H]2C[C@H](N=[N+]=[N-])[C@@H](CO)O2)c(=O)[nH]c1=O", "strain or isolate": "BaL", "method": "p24", "dose": "0.01 µM", "value": "80%"}
{"structure": "Cc1ccc(-c2ccc3c(c2)C=C(C(=O)Nc2ccc(C[N+](C)(C)C4CCOCC4)cc2)CCC3)cc1", "strain or isolate": "CTV", "method": "p24", "dose": "0.027 µM", "value": "90%"}
{"structure": "CCCCN1C(=O)C(=C/C=C/C=C2/Oc3ccccc3N2CCCS(=O)(=O)O)C(=O)N(CCCC)C1=S", "strain or isolate": "IIIB", "method": "ELISA", "setting": "11 d", "dose": "200 µg/mL", "value": "85%"}
{"structure": "CC[C@H](C)C(=O)O[C@H]1C[C@@H](C)C=C2C=C[C@H](C)[C@H](CC[C@@H]3C[C@@H](O)CC(=O)O3)[C@H]21", "strain or isolate": "92RW009 R5X4 clinical variant", "method": "p24", "dose": "50 µM", "value": "75.3%"}
{"structure": "Cc1cn([C@H]2C[C@H](N=[N+]=[N-])[C@@H](CO)O2)c(=O)[nH]c1=O", "strain or isolate": "UCD123", "method": "RT activity", "dose": "2.5 µg/mL", "value": "95%"}
{"structure": "C[C@]12CC[C@@H]3c4ccc(O)cc4CC[C@H]3[C@@H]1CC[C@@H]2O", "strain or isolate": "BaL", "method": "p24 / ELISA", "dose": "0.003 µM", "value": "40%"}
{"structure": "COc1ccc(Cc2nccc3cc(OC)c(OC)cc23)cc1OC", "strain or isolate": "IIIB", "method": "syncytia / trypan blue", "dose": "10 µg/mL", "value": "45.6%"}
{"structure": "C[C@H]1O[C@@H](O[C@H]2[C@@H](O)C[C@H](O[C@H]3[C@@H](O)C[C@H](O[C@H]4CC[C@@]5(C)[C@H](CC[C@@H]6[C@@H]5C[C@@H](O)[C@]5(C)[C@@H](C7=CC(=O)OC7)CC[C@]65O)C4)O[C@@H]3C)O[C@@H]2C)C[C@H](O)[C@@H]1O", "strain or isolate": "BaL", "method": "p24 / ELISA", "dose": "0.025 µM", "value": "90%"}
{"structure": "Nc1ccn([C@H]2C=C[C@@H](CO)[C@H](CO)S2)c(=O)n1", "method": "p24 / antigen", "dose": "0.1 µM", "value": "10%"}
{"structure": "CCC(C)[C@H](NC(=O)[C@H](C(C)C)[C@@H](O)[C@H](O)[C@H](CC1CCCCC1)NC(=O)c1ccccc1SCCCCC[C@@H]1SC[C@@H]2NC(=O)NC21)C(=O)NCc1ccccn1", "strain or isolate": "D34", "method": "p24", "dose": "0.01 µM", "value": "5%"}

The last 3 rows once more:

structure | strain or isolate | changes | method | setting | dose | value
C[C@H]1O[C@@H](O[C@H]2[C@@H](O)C[C@H](O[C@H]3[C@@H](O)C[C@H](O[C@H]4CC[C@@]5(C)[C@H](CC[C@@H]6[C@@H]5C[C@@H](O)[C@]5(C)[C@@H](C7=CC(=O)OC7)CC[C@]65O)C4)O[C@@H]3C)O[C@@H]2C)C[C@H](O)[C@@H]1O | BaL |  | p24 / ELISA |  | 0.025 µM | 90%
Nc1ccn([C@H]2C=C[C@@H](CO)[C@H](CO)S2)c(=O)n1 |  |  | p24 / antigen |  | 0.1 µM | 10%
CCC(C)[C@H](NC(=O)[C@H](C(C)C)[C@@H](O)[C@H](O)[C@H](CC1CCCCC1)NC(=O)c1ccccc1SCCCCC[C@@H]1SC[C@@H]2NC(=O)NC21)C(=O)NCc1ccccn1 | D34 |  | p24 |  | 0.01 µM | 5%